# PSTVd loop 15 mutant pool in Nicotiana benthamiana

Reference: Wu et al. 2024, doi:10.1371/journal.ppat.1012142.

PSTVd intermediate strain, loop 15: wild type GGAAACCGCUACUAC, pool pattern GGAAACCGNNNNNNC; upper and lower strand joined, each 5' to 3', the first 7 letters being the upper strand, closing pairs included.

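Three N. benthamiana plants were inoculated with the whole mutant pool. Samples came from the inoculated region at 5 days, the leaf margin at 10 and upper systemic leaves at 12.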

Numbers give reads per thousand; 0 = not seen among the reads, higher = more abundant.
Each value is the mean of three plants.
"Pool" is the share in the plasmid pool used as inoculum, on the same scale.
The inoculated region was read from the minus strand, the other sites from the plus strand.
For reference, wild type rose from 33.9 per thousand in the pool to 202, 200, 159 (inoculated region), 724, 746, 710 (leaf margin) and 856, 883, 880 (systemic leaves).
The authors trace changes outside the varied positions to PCR and sequencing errors or to mutation in the plant; presence does not show that a variant is infectious alone.
Samples held 43,870 to 66,106 reads, so the smallest values rest on one or two reads.

GGAAACCGGGCUCAC (pool 0.224) read inoculated region 0.101; leaf margin 0; systemic leaves 0. GGAAACCGGAGCGGC (pool 0.304) read inoculated region 0.0806; leaf margin 0.00668; systemic leaves 0. With GGAAACCGACGAUUC (pool 0.224) the assay gave inoculated region 0.242; leaf margin 0.136; systemic leaves 0.0512. GGAAACCGACGCCUC (pool 0.256) gave inoculated region 0.0678; leaf margin 0.00539; systemic leaves 0. For GGAAACCGUAUUAGC (pool 0.192) the result was inoculated region 0.127; leaf margin 0.0121; systemic leaves 0. GGAAACCGCCUCGUC (pool 0.240) read inoculated region 0.200; leaf margin 0.0121; systemic leaves 0. GGAAACCGAUAAACC (pool 0.208) read inoculated region 0.120; leaf margin 0.00539; systemic leaves 0. With GGAAACCGUACGGGC (pool 0.304) the assay gave inoculated region 0.0903; leaf margin 0.0128; systemic leaves 0.

GGAAACCGCUUAAUC (pool 0.128) gave inoculated region 0.104; leaf margin 0.0128; systemic leaves 0. GGAAACCGAGAAGAC (pool 0.176) gave inoculated region 0.308; leaf margin 0.0241; systemic leaves 0. GGAAACCGGGUGUAC (pool 0.304) gave inoculated region 0.275; leaf margin 0.173; systemic leaves 0.0411. GGAAACCGAGAUUUC (pool 0.288) gave inoculated region 0.375; leaf margin 0.119; systemic leaves 0.0663. GGAAACCGCGCCUCC (pool 0.192) gave inoculated region 0.186; leaf margin 0.0195; systemic leaves 0.00537. With GGAAACCGCGGACGC (pool 0.352) the assay gave inoculated region 0.0795; leaf margin 0.00668; systemic leaves 0. GGAAACCGCGUUCCC (pool 0.224) gave inoculated region 0.0785; leaf margin 0.0108; systemic leaves 0. GGAAACCGGAGAAAC (pool 0.160) read inoculated region 0.0911; leaf margin 0.0275; systemic leaves 0.

For GGAAACCGAGCGUCC (pool 0.176) the result was inoculated region 0.111; leaf margin 0.00539; systemic leaves 0. For GGAAACCGGUAUAUC (pool 0.128) the result was inoculated region 0.318; leaf margin 0.113; systemic leaves 0.0107. GGAAACCGGUCAGCC (pool 0.288) read inoculated region 0.0630; leaf margin 0.0208; systemic leaves 0. With GGAAACCGGGUCCAC (pool 0.192) the assay gave inoculated region 0.0850; leaf margin 0.0148; systemic leaves 0. GGAAACCGAUUUGGC (pool 0.0960) gave inoculated region 0.214; leaf margin 0.0121; systemic leaves 0. With GGAAACCGAACGCUC (pool 0.288) the assay gave inoculated region 0.195; leaf margin 0.0121; systemic leaves 0. GGAAACCGUGAGCGC (pool 0.192) gave inoculated region 0.0741; leaf margin 0.00742; systemic leaves 0. GGAAACCGGCGAGUC (pool 0.272) gave inoculated region 0.202; leaf margin 0.0187; systemic leaves 0.00537.

GGAAACCGUAACGGC (pool 0.288) read inoculated region 0.147; leaf margin 0.0249; systemic leaves 0. For GGAAACCGCGGGGGC (pool 0.176) the result was inoculated region 0.0976; leaf margin 0; systemic leaves 0. GGAAACCGGAGCCUC (pool 0.256) gave inoculated region 0.0965; leaf margin 0.00742; systemic leaves 0.00537. GGAAACCGUGUAAAC (pool 0.256) gave inoculated region 0.103; leaf margin 0; systemic leaves 0.